A mixed list of measured activities; the numbers were collected in NIAID ChemDB.

Common to all: tests in culture; organism: HIV-1

An empty or dashed field is not shown. ECn: concentration that inhibits the pathogen or its effect by n%. Rows are shuffled and stem from different studies.

SMILES | strain or isolate | changes | cell line | conditions | read by | read-out | value
O=C(O)[C@@H](C1CCCCC1)N1C[C@H](CN2CCC(c3[nH]ncc3CCc3ccccc3)CC2)[C@@H](c2ccccc2)C1 | BaL | - | HeLa | - | β-galactosidase | EC50 | <0.033 µM
Cc1cccc(C)c1OCC(=O)N[C@@H](Cc1ccccc1)[C@H](O)CN1CC[C@@H](Sc2ccncc2)C[C@H]1C(=O)NC(C)(C)C | BILA2185-resistant (PR I84V) | PR-I84V | C8166 | - | p24 | EC50 | 0.011 µM
CCc1cc(NCc2nc3c(C)ccc(C)c3o2)c(=O)[nH]c1C | IIIB | - | MT-4 | - | p24 | EC95 | 0.025 µM
CC(=O)Oc1ccc2cc(Br)ccc2c1Cc1c[nH]c2ccccc12 | - | - | MT-4 | - | MTT | EC50 | >19 µM
CC(C)=CCOc1cc(NC(=S)c2ccoc2C)ccc1Cl | UC781-resistant | - | CEM + CEM-SS | - | - | EC50 | >620 µM
CCn1cc(C(=O)O)c(=O)c2cc3c(cc21)OCO3 | - | - | MT-4 | - | cytopathic effect / MTT | EC50 | >200 µg/mL
CCc1cc(NCc2nc3c(Cl)ccc(Cl)c3o2)c(=O)[nH]c1C | TIBO-1(RT-L100I) | RT-L100I | CEM | - | syncytia | EC50 | 0.51 µM
OCCc1ccc(O)c(O)c1 | BaL | - | TZM-bl | - | luciferase | EC50 | 53.9 µM
Nc1ccn([C@H]2CC[C@@H](CO)O2)c(=O)n1 | RTMC(184) (RT D67N K70R M184V T215F K219Q) | RT-D67N K70R M184V T215F K219Q | HT4 + HT4 LacZ-1 | - | plaque count | EC50 | 0.92 µM
CCc1c(C(=O)c2cc(C)cc(C)c2)n(CC2CC=CC2)c(=O)[nH]c1=O | NL4-3 | RT-V108I | CEM + CEM-SS | - | cytopathic effect / XTT | EC50 | 0.003 µM
CC(C)=CCN1Cc2cc(Cl)cc3[nH]c(=S)n(c23)C[C@@H]1C | Pyr/BHAP(RT-Y181I) | RT-Y181I | CEM | - | syncytia | EC50 | 16 µM
O=C(Nc1ccc(C(=O)O)c(O)c1)c1ccc(C(=O)Nc2ccc(O)c(C(=O)O)c2)cc1 | RF | - | CEM + CEM-SS | - | cytopathic effect / XTT | EC50 | >140.1 µM
COC(=O)[C@H](C)NP(=O)(OC[C@H]1O[C@@H](n2cc(C)c(=O)[nH]c2=O)C[C@@H]1N=[N+]=[N-])Oc1ccc(Br)cc1 | IIIB | - | CEM + CEM TK- | - | p24 | EC50 | <0.01 µM
CC(C)=CCOc1cc(NC(=S)c2ccoc2C)ccc1Cl | IIIB | RT-V106A | CEM | - | syncytia | EC50 | 0.023 ± 0.004 µM
CN(C[C@@H](CCN1CCC2(CC1)CS(=O)c1ccccc12)c1cccc(Cl)c1)S(=O)(=O)c1ccccc1 | M-tropic YU-2 | - | PBMC | - | p24 / antigen | EC50 | <1.5 µM
Cc1cn([C@@H]2O[C@H](CO[Si](C)(C)C(C)(C)C)C3(OS(=O)(=O)C=C3N)[C@H]2O[Si](C)(C)C(C)(C)C)c(=O)n(C)c1=O | Quin-0.1 (RT V106A P225H) | RT-V106A P225H | CEM | - | syncytia | EC50 | 2.2 µM
C=C(C#N)c1cc(C)c(Oc2ccnc(Nc3ccc(CN4CCN(S(C)(=O)=O)CC4)cc3)n2)c(C)c1 | IIIB | F227L + V106A | MT-4 | - | MTT | EC50 | 0.11 µM
COc1ccc2ccc(O)c(CN3CCN(Cc4c(O)ccc5ccc(OC)cc45)CC3)c2c1 | - | - | MT-4 | - | MTT | EC50 | >100 µM
O=c1[nH]cnc2c1ncn2[C@H]1CC[C@@H](CO)O1 | IIIB | - | MT-2 | - | ATP | EC50 | 3.1 µM
CC(=O)O[C@@]12C[C@@H](C)[C@@]3(O)[C@@H](C=C(CO)C[C@]4(O)C(=O)C(C)=C[C@@H]34)[C@@H]1C2(C)C | L1 Clinical isolate | - | MT-4 | - | cytopathic effect / MTT | EC50 | 0.04 µg/mL
Nc1nc(=O)n([C@@H]2CS[C@H](CO)O2)cc1F | HXB2 | RT-Y181C M184V | HT4 + HT4 LacZ-1 | - | plaque count | EC50 | >500 µM
C[C@H](Cn1cnc2c(N)nc(N)nc21)OCP(=O)(O)O | IIIB | - | CEM | - | syncytia | EC50 | 0.76 µM
COC(=O)[C@H](C)NP(=O)(OC[C@H]1O[C@@H](N2C(=O)NC(=O)C(C)(Br)C2OC)C[C@@H]1N=[N+]=[N-])Oc1ccc(Br)cc1 | - | - | PBMC | - | p24 | EC50 | 0.005 µM
Cc1cn([C@H]2C[C@H](N=[N+]=[N-])[C@@H](CO)O2)c(=O)[nH]c1=O | BILA2185-resistant (PR I84V) | - | C8166 | - | p24 | EC50 | 0.012 µM
O=c1[nH]cnc2c1ncn2[C@H]1CC[C@@H](CO)O1 | rA17 | - | MT-4 | - | p24 | EC50 | <50 µM
C[C@H](Cn1cnc2c(N)ncnc21)OCP(=O)(O)O | BR-92-025 (subtype C) | - | PBMCs | 4 d | p24 / ELISA / antigen | EC50 | 1.9 µM
CC(C)CN(C[C@@H](O)[C@H](Cc1ccccc1)NC(=O)[C@@H](NC(=O)CNCc1cccc(F)c1)C(C)(C)C)S(=O)(=O)c1cccc(N)c1 | RF | - | MT-2 | - | virus yield | EC90 | 0.0041 µM
Cc1cn([C@H]2C[C@H](N=[N+]=[N-])[C@@H](CO)O2)c(=O)[nH]c1=O | IIIB | - | C8166 | - | cytopathic effect / syncytia | EC50 | 0.0032 µg/mL
CCCCCCCCCc1ccc(OCCOCCOCCOCCOCCOCCOCCOCCOCCO)cc1 | - | - | PBMC | - | p24 | EC50 | 2.2 µM
Cc1cn([C@@H]2CC[C@H](CO)O2)c(=O)[nH]c1=O | IIIB | - | MT-2 | - | cytopathic effect / MTT | EC50 | >100 µM
Nc1nc2c(ncn2C[C@@H](CCO)OCP(=O)(O)O)c(=O)[nH]1 | BRU | - | CEM | - | XTT | EC50 | >100 µM
C=C(C)[C@@]1(O)[C@H](OC(C)=O)[C@@H]2[C@H](OC(=O)c3ccccc3)[C@@]3(C)O[C@@]4([C@@H]3OC(C)=O)[C@@H](OC(C)=O)[C@@H](C)C[C@H]4[C@@]2(O)[C@H](C)[C@@H]1OC(=O)c1ccccc1 | IIIB | - | C8166 | - | cytopathic effect / syncytia | EC50 | 51.04 µg/mL
COC(=O)[C@H](C)NP(=O)(OC[C@H]1O[C@@H](N2C(=O)NC(=O)C(C)(Br)C2OC)C[C@@H]1N=[N+]=[N-])Oc1ccc(Br)cc1 | IIIB | - | PBMC | - | RT activity | EC50 | 0.009 µM
[Li+] | GUN1 | - | MT-4 | - | antigen | EC50 | >1000 µg/mL
CO[C@@H]1[C@@H](OC(N)=O)[C@@H](O)[C@H](Oc2ccc3c(O)c(NC(=O)c4ccc(O)c(CC=C(C)C)c4)c(=O)oc3c2C)OC1(C)C | - | - | HuT-78 + HUT 78 | - | antigen | EC50 | >78 µg/mL
O=C(O)c1c[nH]c2c(ccc3[nH]cc(C(=O)O)c(=O)c32)c1=O | RF | - | CEM + CEM-SS | - | cytopathic effect / XTT | EC50 | >200 µM
C[C@H](Cn1cnc2c(N)ncnc21)OCP(=O)(O)O | BaL | - | Macrophage + Monocytes/macrophages | - | p24 / syncytia | EC50 | 0.04 µM
CC(C)=CCOc1cc(NC(=S)c2ccsc2C)ccc1Cl | HE | - | MOLT | - | cytopathic effect | EC50 | 0.005 µg/mL
O=C(O)[C@@H](C1CCCCC1)N1C[C@H](CN2CCC(c3[nH]ncc3Cc3ccccc3)CC2)[C@@H](c2ccccc2)C1 | BaL | - | HeLa | - | β-galactosidase | EC50 | <0.1 µM
CCCc1cc(=O)oc2c3c(c4c(c12)OC(C)(C)C=C4)O[C@@H](C)[C@H](C)[C@@H]3O | UC781-RS(RT-Y181C | RT-Y181C | - | - | - | EC50 | <0.15 µM
CCOC(=O)[C@H](C)N[P@](=O)(CO[C@@H]1C=C(F)[C@H](n2cnc3c(N)ncnc32)O1)Oc1ccccc1 | UG-92-031 (subtype A) | - | PBMCs | 4 d | p24 / ELISA / antigen | EC50 | 0.037 µM
CN(C[C@@H](CCN1CCC2(CC1)CS(=O)(=O)c1ccccc12)c1cccc(Cl)c1)S(=O)(=O)c1ccccc1 | M-tropic YU-2 | - | PBMC | - | p24 / antigen | EC50 | <3 µM
CCn1ncc(CCc2ccccc2)c1C1CCN(C[C@H]2CN([C@@H](C(=O)O)C3CCCCC3)C[C@@H]2c2ccccc2)CC1 | BaL | - | HeLa | - | β-galactosidase | EC50 | <0.0004 µM
CC(C)CN(C[C@@H](O)[C@H](Cc1ccccc1)NC(=O)[C@@H](NC(=O)CNCc1cccc(F)c1)C(C)(C)C)S(=O)(=O)c1ccc(N)cc1 | HXB2 | - | MT-4 | - | p24 | EC90 | 0.012 µM
CC=CCOc1cc(NC(=S)c2ccoc2C)ccc1OC | - | - | - | - | - | EC50 | 0.6 µM
Cc1cn([C@H]2C[C@H](N=[N+]=[N-])[C@@H](CO)O2)c(=O)[nH]c1=O | IIIB | - | CEM + CEM-SS | - | cytopathic effect / XTT | EC50 | 0.0033 µM
CCn1ncc(Cc2ccccc2)c1C1CCN(C[C@H]2CN([C@@H](C(=O)O)C3CCCCC3)C[C@@H]2c2ccccc2)CC1 | BaL | - | HeLa | - | β-galactosidase | EC90 | 0.0069 µM
Cc1cn([C@@H]2O[C@H](CO[Si](C)(C)C(C)(C)C)C3(OS(=O)(=O)C=C3N)[C@H]2O[Si](C)(C)C(C)(C)C)c(=O)n(C)c1=O | IIIB | - | C8166 | - | cytopathic effect | EC50 | 0.026 µg/mL
CCO/N=C(\c1ccc(Br)cc1)C1CCN(C2(C)CCN(C(=O)c3c(C)cc[n+]([O-])c3C)CC2)CC1 | 93MW960 R5 CLADE C | - | PBMC | - | p24 | EC50 | 0.005 µM
Cc1occc1C(=S)Nc1ccc(Cl)c(/C=N/OC(C)(C)C)c1 | IIIB | - | C8166 | - | cytopathic effect | EC50 | 0.019 µg/mL
C=C(C)[C@@]1(O)[C@H](OC(C)=O)[C@@H]2[C@H](OC(C)=O)[C@@]3(C)O[C@@]4([C@@H]3OC(=O)c3ccccc3)[C@@H](O)[C@@H](C)C[C@H]4[C@@]2(O)[C@H](C)[C@@H]1OC(=O)c1ccccc1 | IIIB | - | C8166 | - | cytopathic effect / syncytia | EC50 | 71.05 µg/mL
COc1ccc2ccc(OC(C)=O)c(Cc3c(-c4ccccc4)[nH]c4ccccc34)c2c1 | - | - | MT-4 | - | MTT | EC50 | >15 µM
CCn1nc(C2CCN(C[C@H]3CN([C@@H](C(=O)O)C4CCCCC4)C[C@@H]3c3ccccc3)CC2)cc1Cc1ccccc1 | BaL | - | HeLa | - | β-galactosidase | EC90 | >0.3 µM
Cc1cccc(N2C(=O)CS[C@@H]2c2c(Br)cccc2Br)n1 | IIIB | - | MT-4 | - | syncytia | EC50 | 0.22 µM
CC(=O)Oc1ccc2ccccc2c1Cc1c[nH]c2ccccc12 | - | - | MT-4 | - | MTT | EC50 | >30 µM
O=S(=O)(O)c1cc(N=C=S)ccc1/C=C/c1ccc(N=C=S)cc1S(=O)(=O)O | RF | - | C8166 | - | p24 | EC50 | <100 µg/mL
COc1ccc2c(Cc3c[nH]c4ccccc34)c(OC(C)=O)ccc2c1 | - | - | MT-4 | - | MTT | EC50 | >18 µM
Fc1cccc(F)c1C1SCc2nc3ccccc3n21 | UC781-RS(RT-Y181C | RT-Y181C | - | - | - | EC50 | >69 µM
Nc1nc2c(ncn2C[C@@H](OCP(=O)(O)O)C2CC2)c(=O)[nH]1 | RF | - | CEM | - | XTT | EC50 | >100 µM
Cc1cc(C#N)cc(C)c1Oc1nc(Nc2ccc(C#N)cc2)nc(N)c1Br | Clinical isolate | N348I | HEK293T | clinical isolate | luciferase | EC50 | 0.00426 µM
COc1ccc2[nH]cc(Cc3c(OC(C)=O)ccc4cc(Br)ccc34)c2c1 | - | - | MT-4 | - | MTT | EC50 | >20 µM

For reference, 7 entries again:

SMILES | strain or isolate | changes | cell line | conditions | read by | read-out | value
CCCCCCCCCc1ccc(OCCOCCOCCOCCOCCOCCOCCOCCOCCO)cc1 | - | - | PBMC | - | p24 | EC50 | 2.2 µM
CCc1cc(NCc2nc3c(C)ccc(C)c3o2)c(=O)[nH]c1C | IIIB | - | MT-4 | - | p24 | EC95 | 0.025 µM
Cc1cc(C#N)cc(C)c1Oc1nc(Nc2ccc(C#N)cc2)nc(N)c1Br | Clinical isolate | N348I | HEK293T | clinical isolate | luciferase | EC50 | 0.00426 µM
O=C(O)[C@@H](C1CCCCC1)N1C[C@H](CN2CCC(c3[nH]ncc3Cc3ccccc3)CC2)[C@@H](c2ccccc2)C1 | BaL | - | HeLa | - | β-galactosidase | EC50 | <0.1 µM
COc1ccc2ccc(O)c(CN3CCN(Cc4c(O)ccc5ccc(OC)cc45)CC3)c2c1 | - | - | MT-4 | - | MTT | EC50 | >100 µM
C=C(C)[C@@]1(O)[C@H](OC(C)=O)[C@@H]2[C@H](OC(=O)c3ccccc3)[C@@]3(C)O[C@@]4([C@@H]3OC(C)=O)[C@@H](OC(C)=O)[C@@H](C)C[C@H]4[C@@]2(O)[C@H](C)[C@@H]1OC(=O)c1ccccc1 | IIIB | - | C8166 | - | cytopathic effect / syncytia | EC50 | 51.04 µg/mL
O=S(=O)(O)c1cc(N=C=S)ccc1/C=C/c1ccc(N=C=S)cc1S(=O)(=O)O | RF | - | C8166 | - | p24 | EC50 | <100 µg/mL